Laboratory results reported in patent US8304410B2, “Pyrrole compounds as inhibitors of mycobacteria, synthesis thereof and intermediates thereto” (priority 2007, dated 2012).

System: Vero cells
Details: CC50 Vero / MIC (considering M. tuberculosis H37Rv)

Row | Compound | Protection Index (PI) CC50/MIC
1 | CSc1ccc(-c2cc(CN3CCSCC3)c(C)n2-c2ccc(F)cc2)cc1 [Compound 3a, N-(4-fluorophenyl)-2-methyl-3-thiomorpholinomethyl-5-(4-methylsulfanylphenyl)pyrrole] | > 1024
2 | NNC(=O)c1ccncc1 [Isoniazid, INH, Isoniazid, reference compound] | 128
3 | CSc1ccc(-c2cc(CN3CCOCC3)c(C)n2-c2ccc(F)cc2)cc1 [Compound 3h] | 177.52
4 | Cc1c(CN2CCN(C)CC2)cc(-c2ccc(Cl)cc2)n1-c1ccc(Cl)cc1 [BM 212, 1-{[1,5-bis(4-chlorophenyl)-2-methyl-1H-pyrrol-3-yl]methyl}-4-methylpiperazine] | 5.7
5 | [H]/N=C(/N)N[C@H]1[C@H](O)[C@@H](O)[C@H](O[C@@H]2O[C@@H](C)[C@](O)(C=O)[C@H]2O[C@@H]2O[C@@H](CO)[C@H](O)[C@@H](O)[C@@H]2NC)[C@@H](N/C(N)=N\[H])[C@@H]1O [Streptomycin, SM, Streptomycin, reference compound] | 128
